# Zika virus NS2B-NS3: effect of single substitutions on growth in cell culture

Values reported by Ni et al. 2025 (doi:10.1038/s41467-025-63602-z).

The scanned region of Zika virus MR766 is shown below (positions 1-308): NS2B is 2-131, NS3 begins at position 132.
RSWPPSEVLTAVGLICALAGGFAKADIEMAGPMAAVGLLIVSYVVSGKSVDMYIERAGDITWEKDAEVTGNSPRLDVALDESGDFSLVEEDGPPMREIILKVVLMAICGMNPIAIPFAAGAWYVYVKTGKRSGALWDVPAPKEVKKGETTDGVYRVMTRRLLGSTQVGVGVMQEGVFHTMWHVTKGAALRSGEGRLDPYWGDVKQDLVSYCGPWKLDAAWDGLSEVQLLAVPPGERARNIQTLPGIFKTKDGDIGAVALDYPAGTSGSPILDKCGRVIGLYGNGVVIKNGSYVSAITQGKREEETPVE

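Mutant virus pools were grown in human Huh-7.5 cells. The effect is the change in frequency of a mutant, normalised to wild type, as a mean of three replicate libraries (two for positions 207-308). The study looked for pockets that tolerate few changes, as a guide for inhibitor design.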

Scale: log2 effect, wild type = 0; the lower, the more harmful to the virus.
Substitutions are written as wild-type residue, site number, new residue.
All changes here are to aspartate.
Position 1 still belongs to NS2A. In the paper, -1 or higher counts as tolerated.
The region was split into three libraries (1-103, 104-206, 207-308).
Values above 0 are not proof of better growth: six high scorers were tested one by one, five grew less well than wild type and one about as well.

- R1D = -6.93
- S2D = -6.55
- W3D = -5.47
- P4D = -5.25
- P5D = -5.92
- S6D = -5.83
- E7D = -4.45
- V8D = -5.40
- L9D = -4.48
- T10D = -4.96
- A11D = -5.81
- V12D = -6.22
- G13D = -5.93
- L14D = -5.42
- I15D = -6.52
- C16D = -6.53
- A17D = -5.39
- L18D = -6.22
- A19D = -6.78
- G20D = -5.44
- G21D = -5.87
- F22D = -6.69
- A23D = -3.82
- K24D = -5.46
- A25D = -5.30
- I27D = -5.15
- E28D = -1.99
- M29D = -3.88
- A30D = -4.37
- G31D = -6.19
- P32D = -5.00
- M33D = -4.42
- A34D = -6.42
- A35D = -5.42
- V36D = -3.94
- G37D = -5.09
- L38D = -5.04
- L39D = -3.86
- I40D = -4.74
- V41D = -5.40
- S42D = -4.99
- Y43D = -5.58
- V44D = -4.48
- V45D = -4.96
- S46D = -5.47
- G47D = -5.84
- K48D = -4.89
- S49D = -5.62
- V50D = -5.96
- M52D = -5.47
- Y53D = -5.47
- I54D = -5.44
- E55D = -2.86
- R56D = -5.18
- A57D = -0.08
- G58D = -5.93
- I60D = -6.40
- T61D = -0.61
- W62D = -5.83
- E63D = 0.00
- K64D = -0.07
- A66D = -6.08
- E67D = -3.13
- V68D = -6.06
- T69D = -5.84
- G70D = -6.33

Extract of 5 entries:

| mutation | log2 growth effect |
|---|---|
| T61D | -0.61 |
| M52D | -5.47 |
| V8D | -5.40 |
| F22D | -6.69 |
| V12D | -6.22 |